Pooled drug test results. Numbers come from NIAID ChemDB, via PubChem.

All rows: growth or infection tests; species: Mycobacterium tuberculosis

An empty or dashed field is not shown.

smiles	dose	endpoint	setting	method	cell line	strain or isolate	value
NNC(=O)c1cc(/C=C/c2cccs2)nc2ccccc12		MIC		fluorescence		H37Rv	3.125 µg/mL
O=C1c2c(O)cccc2[C@H]([C@@H]2O[C@H](CO)[C@@H](O)[C@H](O)[C@H]2O)c2cc(CO)cc(O)c21	12.5 µg/mL	inhibition		BACTEC		H37Rv	-3%
CC1N=C(N)NC(c2ccccc2)=C1C(=O)Nc1ccc(S(=O)(=O)c2ccc(NC(=O)C3=C(c4ccccc4)NC(N)=NC3C)cc2)cc1		MIC				INH resistant	1.56 µM
CN(C)c1ccc(O)c2c1C[C@H]1C[C@H]3[C@H](N(C)C)C(=O)C(C(N)=O)=C(O)[C@@]3(O)C(=O)C1=C2O		MIC90				19 strains	>25 µg/mL
O=C(NNC(=O)c1ccc2ccccc2c1)c1ccc(Br)cc1		MIC bound		BACTEC		H37Rv	>12.5 µg/mL
N/C(=N\N=C\c1cc(Br)ccc1O)SCc1ccc(C(F)(F)F)cc1		MIC	21 d	broth dilution		H37Rv	32 µM
CC1(C)CC2(C)OC3(C)CC(C)(C)OC3(C)OC2(C)O1		MIC bound		BACTEC		H37Rv	>12.5 µg/mL
N/C(=N\N=C\c1cc(Cl)ccc1O)SCc1cccc(Cl)c1		MIC	14 d	broth dilution		H37Rv	32 µM
CC1N=C(N)NC(c2cccs2)=C1C(=O)Nc1ccc(S(=O)(=O)c2ccc(NC(=O)C3=C(c4cccs4)NC(N)=NC3C)cc2)cc1		MIC				H37Rv	0.68 µM
O=C(Nc1ccc(C(F)(F)F)cc1)c1cnccn1		MIC		resazurin		ATCC 27294	>100 µg/mL
CCCCCCCCCCCOC[n+]1cccc(NCn2cnc3ccccc32)c1		MIC				H37Rv	<6.25 µg/mL
N/C(=N\N=C\c1ccccc1)SCc1ccccc1		MIC	14 d	broth dilution		H37Rv	62.5 µM
O=C(O)c1cc(-c2ccc(OCc3c(Cl)cccc3Cl)cc2)sc1NCc1ccccc1		MIC		resazurin		H37Rv	48.2 µM
N/C(=N\N=C\c1cc(Cl)ccc1O)SCc1ccc(Br)cc1		MIC	21 d	broth dilution		H37Rv	16 µM
CC(NNC(=O)c1ccncc1)c1ccc(Cl)c(Cl)c1		MIC				H37Rv (ethambutol-resistant)	≤0.49 µg/mL
CCn1cc(C(=O)O)c(=O)c2cc3c(cc21)OCO3		MIC				H37Rv	32 µg/mL
CC1N=C(N)NC(c2ccc(F)cc2)=C1C(=O)Nc1ccc(S(=O)(=O)c2ccc(NC(=O)C3=C(c4ccc(F)cc4)NC(N)=NC3C)cc2)cc1		MIC				H37Rv	0.08 µM
COc1ccc(C2OCC3(O)C(c4ccc(OC)c(OC)c4)OCC23)cc1OC		MIC bound		BACTEC		H37Rv	>12.5 µg/mL
CC(NNC(=O)c1ccncc1)c1cccc(C(F)(F)F)c1		MIC				H37Rv	1.6 µg/mL
COc1ccc(C2=C(C(=O)Nc3ccc(S(=O)(=O)c4ccc(NC(=O)C5=C(c6ccc(OC)cc6)NC(N)=NC5C)cc4)cc3)C(C)N=C(N)N2)cc1		MIC				INH resistant	2.5 µM
C=C(C)C1CC[C@]2(C(=O)O)CCC3(C)[C@H](CC[C@@H]4[C@@]5(C)CC[C@H](OC6OC(CO)C(O)C6OC6OC(C)C(O)C(O)C6O)[C@@](C)(CO)C5CC[C@]43C)[C@@H]12		MIC bound		BACTEC		H37Rv	>12.5 µg/mL
COC(=O)Nc1sc(-c2ccc(OCc3c(Cl)cccc3Cl)cc2)cc1C(=O)O		MIC		resazurin		H37Rv	3.7 µM
COc1ccc2c(c1)[n+]([O-])c(S(=O)(=O)c1ccc(C)cc1)c(N)[n+]2[O-]		MIC				PZA-R	>12.5 µg/mL
Cc1cccc2c1N=C(c1ccccc1)C2CN1CCC(NS(C)(=O)=O)C1		MIC					3.3–6.2 µM
Cc1ccc(NC(=O)c2cc(-c3ccccc3)nc3ccc(C)cc23)cc1		MIC		fluorescence		H37Rv	>6.25 µg/mL
O=C1c2ccccc2C(=O)c2c(NCCNCCO)ccc(O)c21		MIC bound		BACTEC		H37Rv	≤12.5 µg/mL
CCn1cc(C(=O)O)c(=O)c2cc(F)c(N3CCNCC3)cc21		MIC				H37Rv	4 µg/mL
COc1ccc(-c2oc3cc(OC)c(OC)c(O)c3c(=O)c2O)cc1O	12.8 µg/mL	inhibition		BACTEC		H37Rv	11%
C/C(=N\NC(=O)c1ccncc1)c1ccccc1F		MIC				H37Rv (rifampin-resistant)	1 µg/mL
NC1CCN(c2c(F)cc3c(=O)c(C(=O)O)cn(C4CC4)c3c2Cl)C1		MIC				H37Rv	0.5 µg/mL
O=C(Nc1ccc(Br)cc1)c1cnccn1		MIC		resazurin		ATCC 27294	>100 µg/mL
CCn1cc(C(=O)O)c(=O)c2ccc(C)nc21		MIC				H37Rv	128 µg/mL
Nc1ccc2oc3cccc(N)c3c(=O)c2c1	12.5 µg/mL	inhibition		BACTEC		H37Rv	22.32%
O=C(Nc1sc(-c2ccc(OCc3c(Cl)cccc3Cl)cc2)cc1C(=O)O)c1cccs1		MIC		resazurin		H37Rv	27.4 µM
CC1N=C(N)NC(c2ccc(Cl)cc2)=C1C(=O)Nc1ccc(S(=O)(=O)c2ccc(NC(=O)C3=C(c4ccc(Cl)cc4)NC(N)=NC3C)cc2)cc1		MIC				INH resistant	3.2 µM
O=C(N/N=C/c1cc2cc(F)ccc2[nH]c1=O)c1ccncc1		MIC		resazurin / visual reading		H37Rv	25 µg/mL
CCN(CC)CCOc1ccc(N=Nc2ccc(N)nc2N)cc1	12.5 µg/mL	inhibition		BACTEC		H37Rv	83%
Cc1ccc(NC(=O)c2cnccn2)cc1		MIC		resazurin		ATCC 27294	100 µg/mL
CC1CN(c2cc3c(cc2F)c(=O)c(C(=O)O)cn3-c2ccc(F)cc2F)CCN1		MIC				H37Rv	4 µg/mL
O=C(O)c1cc(-c2ccc(OCc3c(Cl)cccc3Cl)cc2)sc1NCc1ccccc1Cl		EC50		resazurin		H37Rv	28.05 µM
O=c1c2ccccc2nnn1O	12.5 µg/mL	inhibition		BACTEC		H37Rv	0%
CCCNc1sc(-c2ccc(OCc3c(Cl)cccc3Cl)cc2)cc1C(=O)O		MIC		resazurin		H37Rv	7.5 µM
N/C(=N\N=C\c1cc(Br)ccc1O)SCc1ccc(Br)cc1		MIC	21 d	broth dilution		H37Rv	32 µM
O=C(N/N=C/c1cccc(C(F)(F)F)c1)c1ccncc1		MIC				Ethambutol-resistant	0.1 µg/mL
O=C(Nc1ccc(Cl)cc1)c1cnccn1		MIC		resazurin		ATCC 27294	50 µg/mL
CC1=C(C)C(=O)C(C(C)(C)CC(=O)n2cc(F)c(=O)[nH]c2=O)=C(C)C1=O		MIC bound		BACTEC		H37Rv	≤128 µg/mL
CC(NNC(=O)c1ccncc1)c1ccc(F)cc1		MIC				H37Rv (ethambutol-resistant)	≤0.49 µg/mL
Cc1c(F)cc2c(=O)c(C(=O)O)cn3c2c1CCC3C		MIC90				100 strains	3.2 µg/mL
C#CCOCC1CN(c2ccccc2)C(=O)O1	12.5 µg/mL	inhibition		BACTEC		H37Rv	58%
Cc1ccc(NC(=O)c2cc(-c3ccc(-c4ccc([N+](=O)[O-])s4)s3)nc3ccc(C)cc23)cc1		MIC		fluorescence		H37Rv	>6.25 µg/mL
N/C(=N\N=C\c1cc(Br)ccc1O)SCc1cccc(Cl)c1		MIC	14 d	broth dilution		H37Rv	32 µM
C[C@H]1NCc2cc(-c3ccc4c(=O)c(C(=O)O)cn(C5CC5)c4c3OC(F)F)ccc21		MIC				H37Rv	2 µg/mL
COc1ccccc1NC(=O)c1cnccn1		MIC		resazurin		ATCC 27294	>100 µg/mL
O=C(N/N=C/c1ccccc1F)c1ccncc1		MIC				H37Rv (rifampin-resistant)	1 µg/mL
CC[C@H]1OC(=O)[C@H](C)[C@@H](O[C@H]2C[C@@](C)(OC)[C@@H](O)[C@H](C)O2)[C@H](C)[C@@H](O[C@@H]2O[C@H](C)C[C@H](N(C)C)[C@H]2O)[C@](C)(O)C[C@@H](C)C(=O)[C@H](C)[C@@H](O)[C@]1(C)O		MIC90				23 strains	>25 µg/mL
CC(C)=CCNc1sc(-c2ccc(OCc3c(Cl)cccc3Cl)cc2)cc1C(=O)O		EC50		resazurin		H37Rv	>128 µM
C/C(=N\NC(=O)c1ccncc1)c1cccc(C(F)(F)F)c1		MIC				H37Rv	0.1 µg/mL
CC(=O)O[C@H]1C[C@@H]2CC3(CC[C@]2(C)C2C[C@H](OC(C)=O)[C@@]4(C)C(CC[C@@H]4C(C)CCC(=O)NC(C)C)C21)OOC1(CCC(c2ccccc2)CC1)OO3		MIC					>6.25 µg/mL
CC(C)CNc1sc(-c2ccc(OCc3c(Cl)cccc3Cl)cc2)cc1C(=O)O		MIC		resazurin		H37Rv	7.8 µM
O=C(Nc1nc(-c2ccc(Br)s2)cs1)c1cc(/C=C/c2ccc([N+](=O)[O-])s2)nc2ccccc12		MIC		fluorescence		H37Rv	6.25 µg/mL
CCc1ccc(C(=O)N/N=C(\C)[C@]2(O)Cc3c(O)c4c(c(O)c3[C@H](O[C@H]3C[C@H](N)[C@H](O)[C@H](C)O3)C2)C(=O)c2c(OC)cccc2C4=O)cc1		MIC bound		BACTEC		H37Rv	≤12.5 µg/mL
CC1COc2c(N3CCN(C)CC3)c(F)cc3c(=O)c(C(=O)O)cn1c23		MIC				H37Rv	1 µg/mL
CC(=O)Oc1c(C)c2c(O)c3c1C1=C(OCOC1=C(C)C3=O)/C(C)=C/[C@@](C)(O)[C@H](O)[C@@H](C)[C@@H](O)[C@H](C(=O)O)[C@H](O)[C@H](C)C(O)[C@H](C)/C=C\C=C(/C)C(=O)N2		MIC				H37Rv	0.1 µg/mL
Cc1ccc(NC(=O)/C(CC(=O)c2sc(Nc3ccc(Cl)c(Cl)c3)nc2C)=N\Nc2ccc([N+](=O)[O-])cc2[N+](=O)[O-])c(C)c1		MIC bound		resazurin		H37Rv	>6.25 µg/mL
O=C(O)c1cc(-c2ccccc2)nc2ccccc12		MIC		fluorescence		H37Rv	>6.25 µg/mL
O=S(=O)(NC1CCN(Cc2ccncc2)CC1)c1ccc(-n2cccn2)cc1		MIC				H37Rv	0.8–3.1 µM
O=c1nc2c(ncn2Cc2ccccc2)c(-c2ccco2)n1Cc1ccccc1		EC50				H37Rv	>12.5 µg/mL
C[S+](C)C1=C(O)OC(C)(C)OC1=O		MIC bound		BACTEC		H37Rv	>12.5 µg/mL
O=C(NNCc1cccc(C(F)(F)F)c1)c1ccncc1		MIC				H37Rv (rifampin-resistant)	1.95 µg/mL
OCc1ccc2ccc3ccc(CO)nc3c2n1		MIC bound		BACTEC		H37Rv	>12.5 µg/mL
O=C(Nc1ccccc1)c1cc(/C=C/c2ccc(-c3ccc([N+](=O)[O-])s3)s2)nc2ccccc12		MIC		fluorescence		H37Rv	>6.25 µg/mL
COc1ccc2nc(C)c3c(c2c1)C(=O)N(CCCN1CCN(CCCN2C(=O)c4c(C)nc5ccc(OC)cc5c4C2=O)CC1)C3=O	12.5 µg/mL	inhibition		BACTEC		H37Rv	39%
COc1ccc(C2=C(C(=O)Nc3ccc(S(=O)(=O)c4ccc(NC(=O)C5=C(c6ccc(OC)c(OC)c6)NC(N)=NC5C)cc4)cc3)C(C)N=C(N)N2)cc1OC		MIC				INH resistant	2.12 µM
Cc1ccc(CS/C(N)=N/N=C/c2cc(Cl)ccc2O)cc1		MIC	14 d	broth dilution		H37Rv	32 µM
COC1=C(C(C)C)C(=O)C2=C(C1=O)C1(C)CCCC(C)(C)C1=CC2OC(C)=O		MIC					0.38 µg/mL
NC[C@H]1O[C@H](O[C@H]2[C@H](O)[C@@H](O[C@H]3O[C@H](CO)[C@@H](O)[C@H](N)[C@H]3O)[C@H](N)C[C@@H]2N)[C@H](O)[C@@H](O)[C@@H]1O		MIC		resazurin		H37Rv	≤1.25 µg/mL
O=[N+]([O-])c1ccc2c(c1)[S@@](=O)c1nc([N+](=O)[O-])cnc1N2		MIC bound		BACTEC		H37Rv	>12.5 µg/mL
COc1ccc(C(=O)Nc2sc(-c3ccc(OCc4c(Cl)cccc4Cl)cc3)cc2C(=O)O)cc1		MIC		resazurin		H37Rv	>64 µM
Clc1ccccc1CNCC1CCC(CNCc2ccccc2Cl)CC1		MIC bound		resazurin		H37Rv	>6.25 µg/mL
O=C(c1ccncc1)N1CCC(NS(=O)(=O)c2ccc(-n3cccn3)cc2)CC1		MIC					6.3 µM
O=C(N/N=C/c1cccc(F)c1)c1ccncc1		EC50	inside macrophages	colony count	Macrophages	Erdman	<0.011 µg/mL
Cc1cccc2c(CN3CCCC3)c(-c3ccccc3)[nH]c12		MIC					12.5 µM
CC1N=C(N)NC(c2ccc([N+](=O)[O-])cc2)=C1C(=O)Nc1ccc(S(=O)(=O)c2ccc(NC(=O)C3=C(c4ccc([N+](=O)[O-])cc4)NC(N)=NC3C)cc2)cc1		MIC				INH resistant	3.72 µM

The last 5 rows once more:

smiles	dose	endpoint	setting	method	cell line	strain or isolate	value
Clc1ccccc1CNCC1CCC(CNCc2ccccc2Cl)CC1		MIC bound		resazurin		H37Rv	>6.25 µg/mL
O=C(c1ccncc1)N1CCC(NS(=O)(=O)c2ccc(-n3cccn3)cc2)CC1		MIC					6.3 µM
O=C(N/N=C/c1cccc(F)c1)c1ccncc1		EC50	inside macrophages	colony count	Macrophages	Erdman	<0.011 µg/mL
Cc1cccc2c(CN3CCCC3)c(-c3ccccc3)[nH]c12		MIC					12.5 µM
CC1N=C(N)NC(c2ccc([N+](=O)[O-])cc2)=C1C(=O)Nc1ccc(S(=O)(=O)c2ccc(NC(=O)C3=C(c4ccc([N+](=O)[O-])cc4)NC(N)=NC3C)cc2)cc1		MIC				INH resistant	3.72 µM

ECn: concentration that inhibits the pathogen or its effect by n%. Percent inhibition refers to the dose given; in toxicity tests it is the harm to the cells. A number after MIC or MFC names an inhibition level or a share of isolates. Neighbouring rows are from separate reports. Two numbers with a dash give a range or band. MIC bound comes from a single tested concentration.